Pooled drug test results. Numbers come from NIAID ChemDB, via PubChem.

Shared fields: host cell toxicity; cells: MT-4; endpoint: CC50

Rows are shuffled and stem from different studies.

| structure | method | result |
|---|---|---|
| Cc1c(Cc2c(Cl)cccc2Cl)nc(SC/C=C/c2ccc([N+](=O)[O-])cc2)[nH]c1=O |  | >10.82 µM |
| Cc1cn([C@H]2C[C@H](N=[N+]=[N-])[C@@H](COC(=O)CCC(=O)O)O2)c(=O)[nH]c1=O | MTT | 45.01 µg/mL |
| Cc1c(Cc2ccc(C#N)cc2)nc(SCc2ccc([N+](=O)[O-])cc2)[nH]c1=O |  | 26.43 µM |
| Cc1cc(C#N)cc(C)c1Oc1nc(Nc2ccc(C#N)cc2)nc(N)c1Br | MTT / absorbance | 2.46 µM |
| CC(C)=CCC(Cc1c(O)cc(O)c2c1O[C@H](c1cc3c(cc1O)O[C@@H](c1ccc(O)cc1)[C@@H]3c1cc(O)cc(O)c1)CC2=O)C(=O)O |  | 114 µg/mL |
| COC(=O)c1ccc(CSc2nc(Cc3c(F)cccc3F)c(C)c(=O)[nH]2)cc1 |  | >34.09 µM |
| Cc1cn([C@H]2C[C@H](N=[N+]=[N-])[C@@H](COC(=O)CCC(=O)OCC3OC4OC5C(COS(=O)(=O)O)OC(OC6C(COS(=O)(=O)O)OC(OC7C(COS(=O)(=O)O)OC(OC8C(COS(=O)(=O)O)OC(OC9C(COS(=O)(=O)O)OC(OC3C(OS(=O)(=O)O)C4OS(=O)(=O)O)C(OS(=O)(=O)O)C9OS(=O)(=O)O)C(OS(=O)(=O)O)C8OS(=O)(=O)O)C(OS(=O)(=O)O)C7OS(=O)(=O)O)C(OS(=O)(=O)O)C6OS(=O)(=O)O)C(OS(=O)(=O)O)C5OS(=O)(=O)O)O2)c(=O)[nH]c1=O | MTT | 70.07 µg/mL |
| CC(C)n1c(/C=C/[C@@H](O)C[C@@H](O)CC(=O)O)c(-c2ccc(F)cc2)c2ccccc21 |  | 0.8–5.6 µg/mL |
| Cc1ccnc2c1NC(=O)c1cccnc1N2C1CC1 | MTT | >15.02 µM |
| COc1ccc(COCCSc2nc(Cc3c(Cl)cccc3Cl)c(C)c(=O)[nH]2)cc1 |  | >53.76 µM |
| Cc1cn([C@H]2C[C@H](N=[N+]=[N-])[C@@H](COC(=O)CCC(=O)OC[C@H]3O[C@@H]4O[C@H]5[C@H](O)[C@@H](O)[C@@H](O[C@H]6[C@H](O)[C@@H](O)[C@@H](O[C@H]7[C@H](O)[C@@H](O)[C@@H](O[C@H]8[C@H](O)[C@@H](O)[C@@H](O[C@H]9[C@H](O)[C@@H](O)[C@@H](O[C@H]3[C@H](O)[C@H]4O)O[C@@H]9CO)O[C@@H]8CO)O[C@@H]7CO)O[C@@H]6CO)O[C@@H]5CO)O2)c(=O)[nH]c1=O | MTT | 8.2 µg/mL |
| CCc1c(CC23CC4CC(CC(C4)C2)C3)nc(SCC(=O)Nc2ccccc2)[nH]c1=O | MTT / absorbance | 15.88 µM |
| COc1ccc(CCSc2nc(C(C)c3c(Cl)cccc3Cl)c(C)c(=O)[nH]2)cc1 |  | >11.13 µM |
| CC(=O)OCC1=C[C@H]2[C@@H]3C(C)(C)[C@]3(OC(C)=O)[C@H](O)[C@@H](C)[C@]2(O)[C@@H]2C=C(C)C(=O)[C@@H]2C1 |  | >500 µg/mL |
| CC(C)=CCc1cc([C@@H]2CC(=O)c3c(O)cc(O)c(CC=C(C)C)c3O2)ccc1O |  | 69 µg/mL |
| c1cc(CN2CCCNCCNCCCNCC2)ccc1CN1CCCNCCNCCCNCC1 |  | 5 µg/mL |
| CO[C@@H]1[C@@H](OC(=O)c2ccc(C)[nH]2)[C@@H](O)C(Oc2ccc3c(O)c(NC(=O)c4c[nH]c(C(=O)Nc5c(O)c6ccc(OC7OC(C)(C)[C@H](OC)[C@@H](OC(=O)c8ccc(C)[nH]8)[C@H]7O)c(C)c6oc5=O)c4C)c(=O)oc3c2C)OC1(C)C |  | 3.3 µg/mL |
| C/C=C(\C)C(=O)O[C@@]12[C@H](O)[C@@H](C)[C@@]3(O)[C@@H](C=C(COC(=O)CCCCCCC/C=C\C/C=C\CCCCC)C[C@]4(O)C(=O)C(C)=C[C@@H]34)[C@@H]1C2(C)C |  | >62.5 µg/mL |
| c1ncc(CN2CCCNCCNCCCNCC2)cc1CN1CCCNCCNCCCNCC1 | MTT | >500 µg/mL |
| CCc1c(Cc2c(Cl)cccc2Cl)nc(SCc2ccc(OC)cc2)[nH]c1=O |  | >57.47 µM |
| CCCCCCCCCCCCCC(=O)O[C@@H]1[C@@H](C)[C@]2(O)[C@@H]3C=C(C)C(=O)[C@@H]3CC(COC(C)=O)=C[C@H]2[C@@H]2C(C)(C)[C@]12OC(C)=O |  | >1000 µg/mL |
| c1cc(CN2CCCNCCNCCCNCC2)sc1CN1CCCNCCNCCCNCC1 | MTT | >500 µg/mL |
| O=C1c2ccccc2C(=O)N1CCOC(=S)N(C(=O)c1cccnc1Cl)c1ccc(Cl)cc1 |  | >200 µM |
| COc1ccc([C@@H]2CC(=O)c3c(O)cc(O)cc3O2)cc1O |  | >200 µg/mL |
| c1cc(CN2CCCNCCNCCCNCC2)ccc1CN1CCCNCCNCCNCCC1 | MTT | >500 µg/mL |
| Cc1c(Cc2c(Cl)cccc2Cl)nc(SCC(=O)c2ccc(C#N)cc2)[nH]c1=O |  | >56.31 µM |
| CCc1c(CC23CC4CC(CC(C4)C2)C3)nc(SCc2ccc(OC)cc2)[nH]c1=O | MTT / absorbance | 10.32 µM |
| CCn1cc(C(=O)O)c(=O)c2cc3c(cc21)OCO3 |  | >200 µg/mL |
| CC(C)=CCC/C(C)=C/Cc1c(O)cc(O)c2c1O[C@H](c1ccc(O)cc1)CC2=O |  | 21 µg/mL |
| CC1(C)C2=CC(=O)C(c3ccccc3)([N+](=O)[O-])C(=O)N2c2ccc(Cl)cc21 |  | >13.4 µM |
| CCCCCCCCCCCCCC(=O)O[C@@H]1[C@@H](C)[C@@]2(O)[C@@H](C=C(COC(C)=O)C[C@]3(O)C(=O)C(C)=C[C@@H]23)[C@@H]2C(C)(C)[C@]12OC(C)=O |  | >62.5 µg/mL |
| C=C(C)[C@@H]1CC[C@]2(C(=O)OC)CC[C@]3(C)[C@H](CC[C@@H]4[C@@]5(C)C[C@@H](F)[C@H](OC(=O)CC(C)(C)C(=O)O)C(C)(C)[C@@H]5CC[C@]43C)[C@@H]12 | ATP / luminescence | >16 µM |
| CC1=C[C@H]2[C@@]3(O)[C@H](C)[C@@H](O)[C@]4(O)[C@H]([C@@H]3C=C(CO)C[C@]2(O)C1=O)C4(C)C |  | >1000 µg/mL |
| Cc1cn([C@H]2C[C@H](N=[N+]=[N-])[C@@H](CO)O2)c(=O)[nH]c1=O | MTT / absorbance | >7.06 µM |

A second listing of 4 rows from above:

structure	method	result
CC(C)=CCC/C(C)=C/Cc1c(O)cc(O)c2c1O[C@H](c1ccc(O)cc1)CC2=O		21 µg/mL
Cc1cn([C@H]2C[C@H](N=[N+]=[N-])[C@@H](COC(=O)CCC(=O)O)O2)c(=O)[nH]c1=O	MTT	45.01 µg/mL
COc1ccc(COCCSc2nc(Cc3c(Cl)cccc3Cl)c(C)c(=O)[nH]2)cc1		>53.76 µM
Cc1cc(C#N)cc(C)c1Oc1nc(Nc2ccc(C#N)cc2)nc(N)c1Br	MTT / absorbance	2.46 µM

Blank or dashed fields: not listed here. Two numbers with a dash give a range or band. CCn: concentration that lowers growth or viability of the cells by n%.